Laboratory results as given in patent US11802258B2, “Perfume precursor” (TAKASAGO INTERNATIONAL CORPORATION, priority 2017, dated 2023).

Legend:
Assay type in all cases: cell-based
Details in all cases: compound released, GC/MS of head space
[1] = system: Staphylococcus aureus NBRC12732; assay: Scent emission test by microorganism, Staphylococcus aureus
Method: (§1) Culture of Staphylococcus aureus strain NBRC12732, Corynebacterium xerosis strain JCM1324, Pseudomonas aeruginosa strain NBRC13275, and Moraxella osloensis strain ATCC19976:
(§2) After inoculating each of bacteria in Muller-Hinton liquid medium, shaking culture was performed at 30° C. for 20 hours, and 3 mL of the resulting preculture solution was transferred to a vial bottle. 10 mg of each of the fragrance precursors was mixed therewith and after hermetical sealing, shaking culture was further performed at 30° C. for 20 hours.
(§3) A peak area of the scent-emitting compound was obtained by performing GC/MS analysis of the head space component included in the vial bottle containing 3 mL of a microorganism culture solution in which 10 mg of the fragrance precursor was mixed. A microorganism culture solution having not mixed therein the fragrance precursor was used as the control, and a peak area of the control was obtained by the same method. The scent emission amount was determined from the difference between the obtained peak area of the scent-emitting compound and the peak area of the control.
(§4) Measurement instrument: 7890GC/5975MSD (manufactured by Agilent Technologies) • Column: BC-WAX 50 m×0.25 mm I.D. • Temperature rise: 70° C. to 220° C., 4° C./min • Split ratio: splitless

[2] = system: Malassezia furfur NBRC0656; assay: Scent emission test by microorganism, Malassezia furfur
Method: Culture of Malassezia furfur Strain NBRC0656:
After inoculating the bacterium in Sabouraud liquid medium containing 0.1% Tween 80, static culture was performed at 28° C. for 3 days under anaerobic conditions, and 3 mL of the resulting preculture solution was transferred to a vial bottle. 10 mg of the fragrance precursor was mixed therewith and after hermetical sealing, static culture was further performed at 28° C. for 3 days.
as §3, §4

[3] = system: Propionibacterium acnes JCM6473; assay: Scent emission test by microorganism, Propionibacterium acnes
Method: Culture of Propionibacterium acnes Strain JCM6473:
After inoculating the bacterium in GAM bouillon liquid medium containing Hemin 0.5 ppm and Menadione 0.5 ppm, static culture was performed at 28° C. for 3 days under anaerobic conditions, and 3 mL of the resulting preculture solution was transferred to a vial bottle. 10 mg of each of the fragrance precursors was mixed therewith and after hermetical sealing, static culture was further performed at 28° C. for 3 days.
as §3, §4

[4] = system: Moraxella osloensis ATCC19976; assay: Scent emission test by microorganism, Moraxella osloensis
Method: as §1, §2, §3, §4

CC/C=C\CCOC(=O)c1ccccc1O [(Z)-3-hexenyl salicylate] was tested, and the “Scent-Emitting Compound” value [1] was “(Z)-3-hexenol”.
For C=CCCCCCCCCOC(=O)c1ccccc1 [Example 14, 9-decenyl Benzoate], the “Scent-Emitting Compound” value [2] was 9-decenol, the “Scent-Emitting Compound” value [3] was 9-decenol and the “Scent-Emitting Compound” value [4] was 9-decenol.
With CC(C)=CCC/C(C)=C/COC(=O)c1ccccc1 [geranyl benzoate] the “Scent-Emitting Compound” value [1] was “geraniol”, the “Scent-Emitting Compound” value [2] was “geraniol” and the “Scent-Emitting Compound” value [3] was “geraniol”.
For O=C(C=Cc1ccccc1)OCCc1ccccc1 [phenylethyl cinnamate], the “Scent-Emitting Compound” value [1] was “phenylethyl alcohol”, the “Scent-Emitting Compound” value [2] was “phenylethyl alcohol” and the “Scent-Emitting Compound” value [3] was “phenylethyl alcohol”.
